A mixed list of measured activities; the numbers were collected in NIAID ChemDB.

Common to all: growth or infection tests; species: HIV-1; read-out: EC50

ECn is the concentration giving n% inhibition of infection, replication or growth.

{"smiles": "O=C(c1ccc(F)cc1)C1Oc2ccccc2C2CC(c3ccc(C(=O)N4CCCCCC4)cc3)=NN12", "read by": "GFP / reporter gene", "strain or isolate": "LAI", "cells": "MT-4", "value": "<1 µM"}
{"smiles": "O=C1NC(=NCCc2ccc(F)cc2)S/C1=C\\c1ccc(-c2ccc(C(=O)O)c(O)c2)o1", "read by": "β-galactosidase", "strain or isolate": "AD8", "cells": "TZM-bl", "value": "0.6 µM"}
{"smiles": "CN(C)c1ccc(Nc2c3ccc(NC(=O)CCN4CCCC4)cc3nc3cc(NC(=O)CCN4CCCC4)ccc23)cc1", "read by": "p24 / antigen", "strain or isolate": "BaL", "cells": "PBMC", "value": "17.4 µM"}
{"smiles": "CC(C)C1=C2[C@H]3CC[C@@H]4[C@@]5(C)CC[C@H](OC(=O)[C@H]6C[C@@H](C(=O)O)C6(C)C)C(C)(C)[C@@H]5CC[C@@]4(C)[C@]3(C)CC[C@@]2(CCNC(=O)c2ccc3ccccc3n2)CC1=O", "read by": "p24 / ELISA", "strain or isolate": "92HT599", "cells": "MT-2", "value": "<1 µM"}
{"smiles": "O=C1NC(=NCc2ccc(Cl)c(Cl)c2)S/C1=C\\c1ccc(-c2ccc(C(=O)O)c(O)c2)o1", "read by": "β-galactosidase", "strain or isolate": "NL4-3", "cells": "TZM-bl", "value": "1.8 µM"}
{"smiles": "CC(C)C1=C2C(CC1=O)[C@@H](C(=O)NCCN(CCN(C)C)Cc1ccc(Cl)cc1)C[C@@H]1[C@@H]2CCC2C3C(CC[C@]21C)C(C)(C)C(C1=CC[C@@H](C(=O)O)CC1)=C[C@H]3C", "read by": "MTS / propidium iodide", "strain or isolate": "NL4-3", "cells": "MT-4", "value": "2.33 µM"}
{"smiles": "O=C1NC(=NCCc2ccc(F)cc2)S/C1=C\\c1ccc(-c2cccc([N+](=O)[O-])c2)o1", "read by": "β-galactosidase", "strain or isolate": "NL4-3", "cells": "TZM-bl", "value": ">10 µM"}
{"smiles": "CCCCN1C(=O)N(Cc2ccc3[nH]nc(N)c3c2)[C@H](Cc2ccccc2)[C@H](O)[C@@H](O)[C@H]1Cc1ccccc1", "read by": "plaque count", "cells": "MT-2", "changes": "PR-V82F I84V", "value": "<1.79 µM"}
{"smiles": "CCN(CC)CCNc1nc(NCCCCNC(=O)CCCCC(=O)NCCCCNc2nc3c(c(NCCN(CC)CC)n2)CC=CC3)nc2c1CC=CC2", "read by": "syncytia / ELISA", "strain or isolate": "IIIB", "cells": "H9", "value": "0.125 µM"}
{"smiles": "O=C(NCc1ccccn1)c1ccc(C2=NN3C(C(=O)c4ccc(F)cc4)Oc4ccccc4C3C2)cc1", "read by": "GFP / reporter gene", "strain or isolate": "LAI", "cells": "MT-4", "value": ">10 µM"}
{"smiles": "O=C(NCc1ccc(F)cc1F)c1cn2c(c(O)c1=O)C(=O)N1C3CCC(C3)OC1C2", "read by": "GFP", "strain or isolate": "NL4-3", "cells": "MT-4", "setting": "100% human serum", "value": "0.209 µM"}
{"smiles": "CCN(CC)CCNc1ccnc(NCCCCCCNC(=O)c2ccc(C(=O)NCCCCCCNc3nccc(NCCN(CC)CC)n3)cc2)n1", "read by": "syncytia / ELISA", "strain or isolate": "IIIB", "cells": "H9", "value": "1.1 µM"}
{"smiles": "CC(C)C1=C2[C@H]3CC[C@@H]4[C@@]5(C)CC[C@H](OC(=O)[C@H]6C[C@@H](C(=O)O)C6(C)C)C(C)(C)[C@@H]5CC[C@@]4(C)[C@]3(C)CC[C@@]2(CC(=O)NCC(C)(C)NC(=O)c2ccc(Cl)c(Cl)c2)CC1=O", "read by": "p24 / ELISA", "strain or isolate": "92HT599", "cells": "MT-2", "value": "<1 µM"}
{"smiles": "CC(C)C1=C2C(CC1=O)[C@@H](C(=O)NCCN1CCS(=O)(=O)CC1)C[C@@H]1[C@@H]2CC[C@@H]2C3[C@H](C)C=C(C4=CCC(C(=O)O)CC4)C(C)(C)[C@@H]3CC[C@]21C", "read by": "MTS / propidium iodide", "strain or isolate": "NL4-3", "cells": "MT-4", "value": "3.39 µM"}
{"smiles": "Nc1nc(=O)n([C@H]2C=C[C@@H](CO)O2)cc1F", "read by": "PCR", "strain or isolate": "LAI", "cells": "PBMC", "value": "<0.38 µM"}
{"smiles": "CC(C)C1=C2[C@H]3CC[C@@H]4[C@@]5(C)CC[C@H](OC(=O)[C@H]6C[C@@H](C(=O)O)C6(C)C)C(C)(C)[C@@H]5CC[C@@]4(C)[C@]3(C)CC[C@@]2(CCNCC(F)(NC(=O)c2ccc(Cl)cc2)C(C)O)CC1=O", "read by": "p24 / ELISA", "strain or isolate": "92HT599", "cells": "MT-2", "value": "<1 µM"}
{"smiles": "O=C(NC1CCCC1)c1ccc(C2=NN3C(C(=O)c4cccc(Br)c4)Oc4ccccc4C3C2)cc1", "read by": "GFP / reporter gene", "strain or isolate": "LAI", "cells": "MT-4", "value": "<1 µM"}
{"smiles": "CCN(CC)CCNc1nc(NCCCNC(=O)c2ccc(C(=O)NCCCNc3nc4c(c(NCCN(CC)CC)n3)CC=CC4)cc2)nc2c1CC=CC2", "read by": "syncytia / ELISA", "strain or isolate": "IIIB", "cells": "H9", "value": "0.125 µM"}
{"smiles": "Cc1ccc(C(=O)NCC[C@@]23CC[C@]4(C)[C@H](CC[C@@H]5[C@@]6(C)CC[C@H](OC(=O)[C@H]7C[C@@H](C(=O)O)C7(C)C)C(C)(C)[C@@H]6CC[C@]54C)C2=C(C(C)C)C(=O)C3)cc1", "read by": "p24 / ELISA", "strain or isolate": "92HT599", "cells": "MT-2", "value": "<1 µM"}
{"smiles": "O=C(NC1CCCCC1)c1ccc(C2=NN3C(C(=O)c4ccc(F)cc4)Oc4ccccc4C3C2)cc1", "read by": "GFP / reporter gene", "strain or isolate": "LAI", "cells": "MT-4", "value": "1–10 µM"}
{"smiles": "CCN(CC)CCNc1ccnc(NCCCNC(=O)c2cccc(C(=O)NCCCNc3nccc(NCCN(CC)CC)n3)c2)n1", "read by": "syncytia / ELISA", "strain or isolate": "IIIB", "cells": "H9", "value": "0.3 µM"}
{"smiles": "CN1CCN(C(=O)c2ccc(C3=NN4C(C(=O)c5ccc(F)cc5)Oc5ccccc5C4C3)cc2)CC1", "read by": "GFP / reporter gene", "strain or isolate": "LAI", "cells": "MT-4", "value": "<1 µM"}
{"smiles": "CC(C)C1=C2[C@H]3CC[C@@H]4[C@@]5(C)CC[C@H](OC(=O)[C@H]6C[C@@H](C(=O)O)C6(C)C)C(C)(C)[C@@H]5CC[C@@]4(C)[C@]3(C)CC[C@@]2([C@@H](O)CNCC(C)(C)NC(=O)c2ccc(N3CCCCC3)cc2)CC1=O", "read by": "p24 / ELISA", "strain or isolate": "92HT599", "cells": "MT-2", "value": "<1 µM"}
{"smiles": "O=C(c1ccc(F)cc1)C1Oc2ccccc2C2CC(c3ccc(C(=O)N4CCc5ccccc5C4)cc3)=NN12", "read by": "GFP / reporter gene", "strain or isolate": "LAI", "cells": "MT-4", "value": ">10 µM"}
{"smiles": "NC(=O)CCNC(=O)c1ccccc1SCc1ccc(OP2(=O)OCc3ccccc3O2)cc1", "read by": "XTT", "strain or isolate": "RF", "cells": "CEM", "value": "0.89 µM"}
{"smiles": "COc1ccc(N(C)C(=O)c2ccc(C3=NN4C(C(=O)c5ccc(F)cc5)Oc5ccccc5C4C3)cc2)cc1", "read by": "GFP / reporter gene", "strain or isolate": "LAI", "cells": "MT-4", "value": "<1 µM"}
{"smiles": "Cc1cccc(C(=O)NC(C)(C)CNC[C@H](O)[C@@]23CC[C@]4(C)[C@H](CC[C@@H]5[C@@]6(C)CC[C@H](OC(=O)[C@H]7C[C@@H](C(=O)O)C7(C)C)C(C)(C)[C@@H]6CC[C@]54C)C2=C(C(C)C)C(=O)C3)n1", "read by": "p24 / ELISA", "strain or isolate": "92HT599", "cells": "MT-2", "value": "<1 µM"}
{"smiles": "COc1cccc(CNC(=O)c2ccc(C3=NN4C(C(=O)c5ccc(F)cc5)Oc5ccccc5C4C3)cc2)c1", "read by": "GFP / reporter gene", "strain or isolate": "LAI", "cells": "MT-4", "value": "1–10 µM"}
{"smiles": "CCc1ccc(CCN=C2NC(=O)/C(=C/c3ccc(-c4ccc(C(=O)O)c(O)c4)o3)S2)cc1", "read by": "β-galactosidase", "cells": "TZM-bl", "setting": "pseudotyped", "value": "5.6 µM"}
{"smiles": "O=C(NC1CCC1)c1ccc(C2=NN3C(C(=O)c4ccc(F)cc4)Oc4ccccc4C3C2)cc1", "read by": "GFP / reporter gene", "strain or isolate": "LAI", "cells": "MT-4", "value": "<1 µM"}
{"smiles": "O=C1NC(=NCc2ccc(Cl)cc2)S/C1=C\\c1ccc(-c2ccc(C(=O)O)c(O)c2)o1", "read by": "β-galactosidase", "strain or isolate": "NL4-3", "cells": "TZM-bl", "value": "3.1 µM"}

The last 2 rows once more:

| smiles | read by | strain or isolate | cells | changes | setting | value |
|---|---|---|---|---|---|---|
| O=C(NC1CCC1)c1ccc(C2=NN3C(C(=O)c4ccc(F)cc4)Oc4ccccc4C3C2)cc1 | GFP / reporter gene | LAI | MT-4 | - | - | <1 µM |
| O=C1NC(=NCc2ccc(Cl)cc2)S/C1=C\c1ccc(-c2ccc(C(=O)O)c(O)c2)o1 | β-galactosidase | NL4-3 | TZM-bl | - | - | 3.1 µM |

Neighbouring rows are from separate reports. a–b is a range or a potency band. An empty or dashed field is not shown.